Results of unrelated studies side by side (data: NIAID ChemDB).

Common to all: tests in culture; organism: Toxoplasma gondii; measure: EC50

ECn: concentration that inhibits the pathogen or its effect by n%.

SMILES,strain or isolate,result
Cc1noc(NS(=O)(=O)c2ccc(N)cc2)c1C,RH,6.4 µg/mL
CCCC1=C(OCCCCCCO)C(C)SC1=O,RH,29.9 µM
Cc1cc2c(o1)C(=O)c1c[nH]c(=O)cc1C2=O,-,2.9 µg/mL
Cc1cc(NS(=O)(=O)c2ccc(N)cc2)no1,RH,1.1 µg/mL
Nc1ccc(S(=O)(=O)Nc2nccc(=O)[nH]2)cc1,-,>150 µg/mL
NC1[C@H]2CN(c3cc4c(cc3F)c(=O)c(C(=O)O)cn4-c3ccc(F)cc3F)C[C@@H]12,-,4.3 µg/mL
COC(=O)c1cccc2c1C(=O)c1c[nH]c(=O)cc1C2=O,-,1.64 µg/mL
O=C1C(=O)c2ccccc2C(O)=C1C1CCC(c2ccc(Cl)cc2)CC1,RH atovaquone-resistant,0.75 µM
COc1c(N2C[C@@H]3C(N)[C@@H]3C2)c(F)cc2c(=O)c(C(=O)O)cn(-c3ccc(F)cc3F)c12,-,19 µg/mL
CN1CCC(c2cc(-c3ccncc3)c(-c3ccc(F)cc3)[nH]2)CC1,TG-PKG FLAG T761M,3.8 µM
Cc1cnc2c(c1)C(=O)c1c(oc(C)c1C)C2=O,-,0.94 µg/mL
Cc1c(F)c(N2C[C@@H]3C(N)[C@@H]3C2)nc2c1c(=O)c(C(=O)O)cn2C1CC1,-,0.6 µg/mL
CCOc1cnc2c(c1C)C(=O)c1oc(C)cc1C2=O,-,0.98 µg/mL
CNC1[C@H]2CN(c3nc4c(cc3F)c(=O)c(C(=O)O)cn4C3CC3)C[C@@H]12,-,4.3 µg/mL
O=C1c2ccccc2C(=O)c2cc(=O)[nH]cc21,-,1.3 µg/mL
CCCC1(C/C=C(\C)CCC=C(C)C)C(=O)SC(C)C1=O,RH,28.1 µM

Blank or dashed fields: not listed here. Rows are shuffled and stem from different studies.